Assay results reported in article PMC12061854.

Chains of the proteins cited; added tags and fusions are not shown. Lines headed by an entry give the natural chain unless they say otherwise; changes in a name come on top.
UniProt O54294: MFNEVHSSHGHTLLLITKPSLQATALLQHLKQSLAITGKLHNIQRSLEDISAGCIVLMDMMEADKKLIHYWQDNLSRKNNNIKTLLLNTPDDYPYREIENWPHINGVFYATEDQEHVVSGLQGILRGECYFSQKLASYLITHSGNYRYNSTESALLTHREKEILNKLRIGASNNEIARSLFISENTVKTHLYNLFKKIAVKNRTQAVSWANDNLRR

These sequences were tested against CsgD (UniProt O54294) (assay: EMSA). Settings: recombinant protein; residues 1-216; probe letters rebuilt from the primers and the genome.
“AAACCATTCAGGCAGTCGCACAACACACCCGCCATCCGCTCTCATTTCACCTGATGGTCTCATCACCGCAACGCTGGCTACCCTGGCTTGCAGCTATCCGCCCCGGCTGGATTTTCATTCATGCCGAAAGCGTGCAAAACCCCCCGGAGATTCTGGCGGATATTCGCGCTATCGGGGCGAAAGCAGGACTGGCGCTTAACCCGGCAACGCCGCTATTGCCTTATCGTTATCTGGCATTGCAACTGGATGCGCTGATGATCATGACCAGCGAACCCGACGGACGCGGACAGCAATTTATCGCCGCGATGTGTGAAAAAGTGAGCCAGGGCAGAGAGCATTTCCCTGCTGCGGAATGCTGGGCGGACGGCGGTATTACACTTCGCGCCGCACGGCTGCTTGCCGCCGCAGGCGCACAGCATCTGGTGATTGGCCGGGCGTTATTCACGACGGCGAACTATGATGTGACGTTGTCACAATTCACCGCGCTATAAAGGAGTCAT (double strand) [orf02401 promoter]”: binds.
“ACCTCACGCCCAACATTTCCGTTAAGCAAACTTAAAGCCGCTCCTGTACCATATTTTTTCCGACGTGTATTAAACTGGTATTTAATAAGCTCATGCATAATGATACCTTTTGTTAAAGTTTATTTATTGAAATAATATGTTTTTGGCAATTATTGAGTAGAAACAAGTAAAGAACTCGCGTTTTGTGGCTGTAGTAGTGGTTATCCTCACTTTAATAAACCGTACTGATAAAAGAGCCGCACAATATCTATTACGTCCTTTTCTTTATTCCACTGATTATGATAGTACTATGCTTATTGCTGTTAAATGGCGCGAAAATGCCCATCGTCGTGCAATTTTCACCTTTTTTTAACGACCTGGACGCGGCAAAATTGCGCACAGTGATAGTCATCACATTAAAGAGGTTATTTGCGAT (double strand) [orf01550 promoter]”: binds.
“AGTTATTTAAGTATTTTCTAAATTTAGTTAATTCTAAAATAAACATCAACCTGATGCCAGCGTAAAAAGCGTAAAGGAGGGTAAAAGCGCGGCGCGCGACTGGCAGGCTCAGGTAAACTGACTATGCTTAGAGATAAAATCTCTTTTTAAACAATGACTAATTTTGCTTGTATGGAGTGTATATGGGTTTCTGGAGAATTGTATTTACGATTATTTTGCCTCCGCTCGGCGTACTTTTAGGAAAAGGGTTCGGTTGGGCATTTATCCTTAATATCCTGCTGACATTACTCGGATATATTCCGGGGCTTATCCACGCATTTTGGGTTCAGATGCGTCATTAATTACCGGCCACCGGCGGCGCATAAGCGCCGCTTATCAGGATAACCTCATTCCCTCTGCTACACTTTTCTTTGTGTGTATTTTTGACAAGCGAGGTGAAT (double strand) [orf01076 promoter]”: binds.
“ATCGACCGGCAGATAAAACCACAATTTGGGTTTGTTGACGCCATCGACCAGCAGCCAGCAATTTGGAACCTGAGTTACCGGCACCCACGCTTTAAACTGCGGATTGACCTTAAACGGATAAGGGTGATCGTCGAGAAAGACGTTGAAAAGCTCGCCGGAATGAATAAGTAACGCATCCAGCTTAAAGCGCGCCAGAACATCGCGCGTCCGTTCTTGTAAGGTAACAATATGATTTTTATAGAGCGCGGCCAGTGATTCCATTTTTTACCCTTCTGTTTTTTTGACCTCAAGTTTCCGCATCTTAGCACATCGCCCCACGAGAGCGTGATCTCTGCCGAGCGTGATCACATCGGCATTTCTTCAATCATTTATTTGCATTTTATTAACACAAAATACACACTTCGCTTCATCTGGTACGACCAGATCACCTTGTGGATTCAGGAGACTGAC (double strand) [orf04582 promoter]”: binds.
“CGTTTCACCCTTGCTCGCGAGGTCCCGGTTTAACTTTAGACGCTCTTTTACGAACCAGGAAGTTTTGCCTGTTTTTTATGCATTAAAACGCGAAGTAGCGGGTTGCGGCGGGGTGTTTAAGTGATCGTATTCACGAATTCATATTTTTATGCAACAGTTCAAAGAAAGTTAATCGTACTCAATGTATGTTACGCGCTTTTAATTGAAGTGTGGTTTGCGGGTATGTACGAGTTTAATCTGGTGTTGCTGCTGCTTCAGCAGATGTGCGTGTTTCTGGTCATTGCGTGGCTAATGAGTAAAACGCGTCTGTTCATCCCGCTTATGCAGGTCACGGTTCGTCTGCCGCACAAGCTTCTGTGTTACGTCACGTTTTCTATCTTCTGCATCATGGGCACTTATTTTGGGCTGCATATCGAAGATTCGATTGCCAATACCCGCGCAATTGGCGCGGTGATGGGCGGCCTACT (double strand) [orf01644 promoter]”: binds.
“GCGTCATTTTCAGGTAAGAAACATCAAACTGGGAGAACGCTCGCAGAAGCGAAAAGAAGGAAAACAGGGTGTAGAGTGCGCCAAAAGGGGGAGGAAAACGTGAAAATTTTTCAGTTGCTAATTTTTCTTATAAAAAACAAAGCACTTTTAGGCATTCACCTGCATTATCTGAAACGTGGTTAAAAAAATATCTTGTGCTATTGGCAAAACCTATGGTAACTCTTTAGGTATTCCTTCGAACAAGATGCAAGAATAGACAAAAATGACAGCCCTTCTACGAGTGATTAGCCTGGTCGTGATTAGCGTGGTGGTGATTATTATCCCACCGTGCGGGGCTGCACTTGGACGAGGAAAGGCTTAGAAATCAAGCCTTAACGAACTAAGACCCCCGCACCGAAAGGTCCGGGGGTTTTTTTTGGCCTGAAAAACTTAAGCGAGGAGCAGAGCGTGAATAACAGCATAAAGTTCTGTTTCTCAAGATTTACGACGGGGATGTAACT (double strand) [orf04655 promoter]”: binds.
“GCTCTCTCCTTAATAACGTCTATTTGACGTATTAAGTCTGGCCGCTATTTTTAGTTTTTACAAACATGAATTTACCCGCAGAATATTAAGCAATAAAATCAACCCATCCGGATTAATATGCAACCGACATCAGCACCGGTGAGCGCGAAAGCGTAACGGCGTAATAGAGAACTTGCCACATAGCTGAAGTCATATGCATCAACGTTTTGATAGCAATTCAGATTAATCGGCTTTATTTTTTGAGGATAATGGCCTTACGCATAATCAATGACAGTCATCGCCGTAAGAAAGTAAGCAAGTTATGCAACAGCGGGTTTGTTGGTAACTGGATAAAATAATCATTCACTGACAATGTCATAAAATAAATATGCCATACTTGAGAAGAACGAACAGATTTCTTTTGTCTCTGGTAACGGAAAAATAAACG (double strand) [orf02298 promoter]”: binds.
“TAAGACAAATTACACTCTTAAACTTTCAACGAATGGTCATTTAGTGGAAATCTTCGAGAAAAATGGTTCTGATGGTGTAATTATCAGACCATTAACCATGAAGATATAATAAGCAGCATTTACACCCCAAAAAAATGCAGTAAGATAGCTACAAAACTAATCTCTATTGCAATGAGGCCAAGTTAAATATGTAAATATTTAGATGCCAGGCGCTGACTCTCTCTGCACCAGGATATACGGCAGCGTCCATTCGATAATCACGGTTAGTTATAACAATATTATTACCAACATGTCAGTTATTTAAAGCACAGGCATAAGCTAAATAATCAAATGTTAAAAACATATAAACCCGAGCCCGTAGAATATGACATTAAGCTCATAATAAAAGCTCAACCTGACCGTTAGTACTAACAGCAGAATTACTGAAACAGTAGATTCTATCCTAACGACTTGTATTAGTTATTATAACTTTTCACCCTGTAAGAGAATACACTATTATC (double strand) [orf00995 promoter]”: binds.
“TGTATATCCTGCTTTTCTTTAGCCACATAAGCCAAAGCGCCCGTCAAAGGCATTGGCCGGGTGGTGAAATTGTGTTCGCGCGTCCCATAGCGCGACAATACGCTATTGCAAATGCAAATAGTTATCAATAATATTATCAATATATTTCACCTTTTATATACAAAATTCATAATAAACACAGGGTTATAATGAAAGAGGCGCTGGCAACGGGAAGTAAGGCCTGGTGGAGGACGAAAACCGGGCCGGAATGGATACGGGAAAAAGACGGAAATTATCGGGTCACTTTTTGGTGGCGCGACCCGCAGGGAAACGAAACACACTCCCCGATACGGCGTGTCTGGGTCTACATCACTGGCGTAACCGATCATCATCAAAACGCGCAGCCTCAGACGATGGCGCGTATTGCCGGAACGGATGTCTGGCGCTGGAGTACGGCGCTTAGCGCTAACTGGCGCGGCAGCTACTGTTTTATTCCTACCGAACGCGATGACGTTTTTGCC (double strand) [orf03345 promoter]”: binds.

The exact form of at least one protein or probe is not confirmed.
